The assay concerns the target Replicase polyprotein 1ab (Middle East respiratory syndrome-related coronavirus (isolate UnitedKingdom/H123990006/2012) (Betacoronavirus England 1) (Humancoronavirus EMC)) (UniProt K9N7C7). As to the kind of experiment: Ratio of Kd for MERS-CoV papain-like protease in presence of Z-Arg-Leu-Arg-Gly-Gly-AMC to Kd for MERS-CoV papain-like protease in absence of Z-Arg-Leu-Arg-Gly-Gly-AMC.

For `Cc1cc(C)n(S(=O)(=O)c2ccc(N)cc2)c(=O)n1`, the Ratio was 7.
